The MIC is the smallest concentration in the dilution series that meets the test's criterion for growth inhibition.

The results in this text go back to patent US9907812B2, “Conjugate-based antifungal and antibacterial prodrugs” (VYOME BIOSCIENCES PVT. LTD., priority 2011, dated 2018).

In the assay the test system is Malassezia furfur (MTCC 1374). Type of assay: cell-based.

“Ketoconazole-oleyl-triethyleneglycerylcarbonate” yielded an MIC of 7.5 to 15 µM.

The substance “Ketoconazole-1-ethylene-oleylcarbonate [KCO]” gave a minimum inhibitory concentration (MIC) of 1.88 µM.

Ketoconazole-1-ethylene-laureate [KEL] showed an MIC of 1.88 to 3.7 µM.

Consider Ketoconazole-1-ethylene-palmitate [KEP], for which the minimum inhibitory concentration (MIC) lay in the range of 3.7 to 7.5 µM.

“[Di-(ketoconazole-1-ethylene)]-triethyleneglyceryl-dicarbonate” registered an MIC of 0.94 to 3.7 µM.

In turn, Ketoconazole-1-ethylene-myristate [KEM] displayed an MIC of 1.88 to 3.7 µM.

Turning to Ketoconazole-ethylene-caprylate [KEC], the MIC was 1.88 µM.

For the substance “Ketoconazole-1-ethylene-undecylenate [KEU]”, the MIC lay within 1.88 to 7.5 µM.

As for Ketoconazole-1-ethylene-oleate [KEO], the minimal inhibitory concentration (MIC) is 1.88 to 3.7 µM.
